Results of unrelated studies side by side (data: NIAID ChemDB).

All rows: whole-cell or culture tests; species: HIV-1

An empty or dashed field is not shown.

smiles	strain	mutations	cell line	read by	endpoint	result
Cc1cc2cn[nH]c2cc1NC(=O)COc1ccc(Cl)cc1C(=O)c1cccc(C#N)c1	HXB2	RT-Y181C	HeLa + HELA CD4+	β-galactosidase	fold resistance	~1
Nc1nc(=O)n([C@H]2C=C[C@@H](CO)O2)cc1F	XM-ABC-resistant	RT-K65R L74V M184V Y115F	MT-4	p24	EC90	14 µM
CC(C)[C@H](NC(=O)OCc1ccccn1)C(=O)N[C@@H](Cc1ccccc1)[C@@H](O)C[C@H](Cc1ccccc1)NC(=O)OCc1cccnc1	NL4-3	PR-I84V	MT-4	p24	EC95	0.8 µM
COc1ccnc2[nH]cc(C(=O)C(=O)N3CCN(C(=O)c4ccccc4)C[C@H]3C)c12	6535	-	TZM-bl	luciferase	EC99	0.1 µM
CC1(C)c2nc(C(=O)NCc3ccc(F)cc3)c(O)c(=O)n2CCN1Cc1cn[nH]n1	-	-	MT-4	p24	EC95	<1 µM
O=C(c1ccccc1)N(CCc1ccccc1)C[C@H](O)CN(CC1CCCC1)S(=O)(=O)c1cc(C(F)(F)F)cc2[nH]cnc12	IIIB	-	CEM	p24	EC90	1 µM
CN1CCn2c(nc(C(=O)NCc3ccc(F)cc3)c(O)c2=O)C1CN(C)S(=O)(=O)N(C)C	-	-	MT-4	p24	EC95	1–10 µM
COC1CCC(S(=O)(=O)N(CC2CCCC2)C[C@@H](O)CN(CCc2ccccc2)C(=O)c2ccccc2)CO1	IIIB	-	CEM	p24	EC90	1 µM
CCC(=O)c1ccc(F)c([C@@H]2C[C@@H]2NC(=O)Nc2ccc(C#N)cn2)c1O	LAI	NNRTI-resistant (RT G190S)	TZM-bl	β-galactosidase / luminescence	fold resistance	0.1
CC(C)CN(C[C@H](O)C[C@H](Cc1ccccc1)CN1CSCC1C(=O)NC(C)(C)C)S(=O)(=O)c1ccccc1	IIIB	-	CEM	p24	EC90	1 µM
O=C(O)c1cc(-n2cccc2)ccc1Cl	93TH051 X4R5 CLADE E	-	PBMC/5.25M7	luciferase / cell fusion	EC90	128 µM
CC(C)=CCOc1cc(NC(=S)c2ccoc2C)ccc1Cl	UC10-resistant (RT Y181C K101E)	RT-Y181C K101E	CEM + CEM-SS	cytopathic effect / XTT	fold resistance	>222
Cc1cc(C#N)cc(C(=O)c2cc(Cl)ccc2OCC(=O)Nc2cnc(S(N)(=O)=O)cc2C)c1	HXB2	RT-V106I	HeLa + HELA CD4+	β-galactosidase	fold resistance	~1
CC(=O)N(C)CCC1CN(Cc2ccc(F)cc2)C(=O)c2c(O)c(=O)n(C(C)C)c(=O)n21	-	-	MT-4	p24	EC95	<10 µM
COc1ccnc2[nH]cc(C(=O)C(=O)N3C4CCC3CN(C(=O)c3ccccc3)C4)c12	AC10	-	TZM-bl	luciferase	EC99	33 µM
Cc1cc(S(N)(=O)=O)ccc1NC(=O)COc1ccc(Cl)cc1C(=O)c1cc(Cl)cc(C#N)c1	HXB2	RT-Y181C	HeLa + HELA CD4+	β-galactosidase	fold resistance	~1
Cc1ccc(S(=O)(=O)N2CCn3c(nc(C(=O)NCc4ccc(F)cc4)c(O)c3=O)C2)cc1	-	-	MT-4	p24	EC95	<50 µM
Cc1cc2[nH]cnc2cc1NC(=O)COc1ccc(Cl)cc1C(=O)c1cc(F)cc(C(F)(F)F)c1	HXB2	RT-P236L	HeLa + HELA CD4+	β-galactosidase	fold resistance	~1
O=C1Nc2ccc(F)c(F)c2[C@@](C#CC2CC2)(C(F)(F)F)N1	-	RT-K101E	-	-	EC90	<0.012 µM
CCc1cc(C#N)cc(C(=O)c2cc(Cl)ccc2OCC(=O)Nc2ccc(S(N)(=O)=O)cc2C)c1	HXB2	RT-V106I	HeLa + HELA CD4+	β-galactosidase	fold resistance	~1
CC(=O)c1ccc(C)cc1NC(C(N)=O)c1c(Cl)cccc1Cl	IIIB	-	CEM + CEM-SS	cytopathic effect / XTT	EC50	0.01 µM
COc1ccc(S(=O)(=O)N(CC2CCCC2)C[C@@H](O)CN(CCc2ccccc2)C(=O)Oc2ccccc2)cc1	IIIB	-	CEM	p24	EC90	1 µM
CC1(C)c2nc(C(=O)NCc3ccc(F)cc3)c(O)c(=O)n2CCN1Cc1cnccn1	-	-	MT-4	p24	EC95	<1 µM
COc1ccc(S(=O)(=O)N(CC(C)C)CC(O)Cc2ccccc2C(=O)NC(C)(C)C)cc1	IIIB	-	CEM	p24	EC90	1 µM
O=C1c2c(O)c(=O)n(CC3CCCN4CCCCC34)c(=O)n2CCN1Cc1ccc(F)cc1	-	-	MT-4	p24	EC95	<10 µM
COc1ccc(S(=O)(=O)N(CC(C)C)C[C@@H](O)CCN(CC2CCCC2)S(=O)(=O)C2C(=O)CC(C)(C)SC2=O)cc1	IIIB	-	CEM	p24	EC90	1 µM
O=C(NCc1ccc(F)cc1)c1nc2n(c(=O)c1O)CCN(Cc1ccccc1)C2	-	-	MT-4	p24	EC95	<50 µM
C[C@@H]1CCO[C@H]2Cn3cc(C(=O)NCc4ccc(F)cc4F)c(=O)c(O)c3C(=O)N12	NL4-3	R263K	CBMC	RT activity	fold resistance	1.9
O=C(c1ccccc1)N(CCc1ccccc1)C[C@H](O)CN(CC1CCCC1)S(=O)(=O)CC1CS(=O)(=O)CC1O	IIIB	-	CEM	p24	EC90	1 µM
Nc1nc(NC2CC2)c2ncn([C@H]3C=C[C@@H](CO)C3)c2n1	XM-Q151M	RT-A62V V75I F77C F116Y Q151M	MT-4	p24	EC90	4.6 µM
O=C(COc1ccc(Cl)cc1C(=O)c1ccco1)Nc1ccc2cn[nH]c2c1	HXB2	RT-Y181C	HeLa + HELA CD4+	β-galactosidase	fold resistance	~10
O=C1Nc2ccc(Cl)cc2[C@@](C#CC2CC2)(C(F)(F)F)N1	-	RT-G190S	-	-	EC90	~0.055 µM
CC(C)=CCOc1cc(NC(=S)c2ccsc2C)ccc1Cl	NL4-3	RT-Y181C	CEM + CEM-SS	p24	fold resistance	5
CC(C)=CCOc1cc(NC(=S)c2ccsc2C)ccc1Cl	Calanolide A-resistant (RT T139I)	RT-T139I	CEM + CEM-SS	cytopathic effect / XTT	fold resistance	3.75
O=S(=O)(c1ccccc1)c1cscc1NCC(O)CN(CC1CCCC1)S(=O)(=O)c1ccccc1	IIIB	-	CEM	p24	EC90	1 µM
CN1CCN(CCC2CN(Cc3ccc(F)cc3)C(=O)c3c(O)c(=O)n(C4CC4)c(=S)n32)CC1	-	-	MT-4	p24	EC95	<10 µM
Cc1cc(S(N)(=O)=O)ccc1NC(=O)COc1ccc(Cl)cc1C(=O)c1cc(F)cc(C(F)(F)F)c1	HXB2	RT-G190E	HeLa + HELA CD4+	β-galactosidase	fold resistance	~1
COc1ccc(S(=O)(=O)N(Cc2ccccc2)CC(F)(F)C(=O)[C@@H](Cc2ccccc2)NC(=O)O[C@H]2CCOC2)cc1	IIIB	-	CEM	p24	EC90	1 µM
CC(C)NC(=O)N(C)CCC1CN(Cc2ccc(F)cc2)C(=O)c2c(O)c(=O)n(C(C)C)c(=O)n21	-	-	MT-4	p24	EC95	<10 µM

Again, the opening 4 rows:

smiles,strain,mutations,cell line,read by,endpoint,result
Cc1cc2cn[nH]c2cc1NC(=O)COc1ccc(Cl)cc1C(=O)c1cccc(C#N)c1,HXB2,RT-Y181C,HeLa + HELA CD4+,β-galactosidase,fold resistance,~1
Nc1nc(=O)n([C@H]2C=C[C@@H](CO)O2)cc1F,XM-ABC-resistant,RT-K65R L74V M184V Y115F,MT-4,p24,EC90,14 µM
CC(C)[C@H](NC(=O)OCc1ccccn1)C(=O)N[C@@H](Cc1ccccc1)[C@@H](O)C[C@H](Cc1ccccc1)NC(=O)OCc1cccnc1,NL4-3,PR-I84V,MT-4,p24,EC95,0.8 µM
COc1ccnc2[nH]cc(C(=O)C(=O)N3CCN(C(=O)c4ccccc4)C[C@H]3C)c12,6535,-,TZM-bl,luciferase,EC99,0.1 µM

ECn: concentration that inhibits the pathogen or its effect by n%. Two numbers with a dash give a range or band. Conditions beyond the fields shown may differ between rows. Fold resistance: result on the changed form divided by that on wild type.